Values from PubChem BioAssay AID1224833 (University of Georgia, 2016)

Purpose: 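Human genes whose knock-down alters rotavirus replication in monkey cells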 (primary screen)
Cells: monkey MA104 kidney cells
Knock-down reagent: siRNA pool against human genes, 50 nM
Time to read-out: 48 h knock-down before infection; read 24 h after infection
Conditions: infection with rotavirus strain RV3 two days after transfection; infectious dose for this stage not given
Measurement: 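z-score of rotavirus antigen signal per well, from a fluorescent immunoassay, relative to non-targeting control wells on the same plate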
Reading the numbers: z-score vs non-targeting control: higher = more rotavirus replication than with non-targeting control
Call rule: In these data the active calls have z-score vs non-targeting control at about -1 or lower, or at about 1 or higher
Meaning of the calls: active = z-score beyond 1 either way; inactive = z-score within 1 of zero
The whole screen tested about 12,000 reagents; below is a random part of them. Over the whole deposit, about 5,600 (46%) were called active. 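Active calls cover z-scores past 1 in both directions, so they include lowered as well as raised rotavirus replication.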 Entries without a mark were called inactive.

no.	gene	z-score vs non-targeting control
1	CLEC18C (GeneID 283971)	-0.889
2	NSMCE2 (GeneID 286053)	-0.89
3	TARS3 (GeneID 123283)	-0.727
4	COL27A1 (GeneID 85301)	0.641
5	NETO1 (GeneID 81832)	-0.852
6	RPL11 (GeneID 6135)	-5.82 (active)
7	FKBP2 (GeneID 2286)	1.45 (active)
8	KRTAP3-2 (GeneID 83897)	0.534
9	ATP8A2 (GeneID 51761)	-1.14 (active)
10	SLC16A1 (GeneID 6566)	-2.13 (active)
11	INSYN2A (GeneID 642938)	1.11 (active)
12	PRG4 (GeneID 10216)	0.856
13	VIT (GeneID 5212)	-1.03 (active)
14	SLC2A7 (GeneID 155184)	-0.657
15	NDUFC1 (GeneID 4717)	-1.67 (active)
16	GALNT17 (GeneID 64409)	-0.585
17	ZNF277 (GeneID 11179)	-0.851
18	OR2T2 (GeneID 401992)	-0.347
19	WDR83OS (GeneID 51398)	0.29
20	CABP4 (GeneID 57010)	0.631
21	OR6Q1 (GeneID 219952)	-1.47 (active)
22	IL1A (GeneID 3552)	-1.64 (active)
23	OSBPL1A (GeneID 114876)	-0.264
24	AREG (GeneID 374)	-0.58
25	TBC1D17 (GeneID 79735)	-1.33 (active)
26	LAG3 (GeneID 3902)	2.29 (active)
27	GPR143 (GeneID 4935)	0.84
28	FHIP1B (GeneID 84067)	0.812
29	MSR1 (GeneID 4481)	-1.57 (active)
30	SCGB2A2 (GeneID 4250)	0.774
31	ANKRD39 (GeneID 51239)	1.18 (active)
32	ASNSD1 (GeneID 54529)	-2.26 (active)
33	SPRR3 (GeneID 6707)	0.49
34	PRPF4 (GeneID 9128)	3.03 (active)
35	SIGLEC15 (GeneID 284266)	-1.81 (active)
36	NCF2 (GeneID 4688)	0.587
37	GAP43 (GeneID 2596)	-1.08 (active)
38	RHNO1 (GeneID 83695)	-0.787
39	CXCL2 (GeneID 2920)	-1.24 (active)
40	SULT1E1 (GeneID 6783)	-1.29 (active)
41	TACC3 (GeneID 10460)	0.0624
42	H3-3A (GeneID 3020)	-1.47 (active)
43	C16orf89 (GeneID 146556)	-0.546
44	SEC31B (GeneID 25956)	-0.532
45	CDK5RAP1 (GeneID 51654)	-0.847
46	EMP1 (GeneID 2012)	-1.97 (active)
47	EGFL6 (GeneID 25975)	1.29 (active)
48	EXOC6 (GeneID 54536)	-0.508
49	CLDN12 (GeneID 9069)	-0.809
50	SERBP1 (GeneID 26135)	-1 (active)
51	KIAA1958 (GeneID 158405)	0.771
52	DCAF17 (GeneID 80067)	1.86 (active)
53	NFATC3 (GeneID 4775)	-1 (active)
54	SLC26A9 (GeneID 115019)	-0.742
55	TBC1D22A (GeneID 25771)	-2.22 (active)
56	ZNF493 (GeneID 284443)	-0.295
57	GSTA4 (GeneID 2941)	0.941
58	IGFBP5 (GeneID 3488)	-0.085
59	MCUR1 (GeneID 63933)	-1.28 (active)
60	SNPH (GeneID 9751)	0.612
61	IFNL1 (GeneID 282618)	-0.632
62	FAM110A (GeneID 83541)	0.0843
63	SNAP29 (GeneID 9342)	0.661
64	DIRAS1 (GeneID 148252)	2.58 (active)
65	PODXL (GeneID 5420)	0.533
66	DHPS (GeneID 1725)	-3.12 (active)
67	CDH1 (GeneID 999)	-0.353
68	CARNMT1 (GeneID 138199)	-0.538
69	TRO (GeneID 7216)	-2.12 (active)
70	LDLRAD1 (GeneID 388633)	1.72 (active)
71	ZSCAN32 (GeneID 54925)	-0.34
72	TINF2 (GeneID 26277)	-0.502
73	DENND6B (GeneID 414918)	1.14 (active)
74	CDH10 (GeneID 1008)	-2.37 (active)
75	D2HGDH (GeneID 728294)	1.45 (active)
76	MTCP1 (GeneID 4515)	-1.88 (active)
77	SNHG32 (GeneID 50854)	-0.815
78	DPH7 (GeneID 92715)	3.11 (active)
79	METTL16 (GeneID 79066)	-1.24 (active)
80	NDUFS7 (GeneID 374291)	-1.9 (active)
81	POGZ (GeneID 23126)	2.18 (active)
82	TMEM190 (GeneID 147744)	-1.26 (active)
83	PRSS45P (GeneID 377047)	-0.935
84	RPL39L (GeneID 116832)	0.0591
85	CORT (GeneID 1325)	-1.36 (active)
86	CLTB (GeneID 1212)	1 (active)
87	NPSR1 (GeneID 387129)	3.44 (active)
88	CALHM1 (GeneID 255022)	-2.08 (active)
89	OR10X1 (GeneID 128367)	-0.407
90	CADM3 (GeneID 57863)	-0.374
91	MRPL1 (GeneID 65008)	0.869
92	SPINK2 (GeneID 6691)	-0.854
93	PCDHA9 (GeneID 9752)	0.918
94	HMOX1 (GeneID 3162)	-1.65 (active)
95	SUPT5H (GeneID 6829)	0.901
96	ASXL2 (GeneID 55252)	-0.335
97	OC90 (GeneID 729330)	-0.914
98	CD27 (GeneID 939)	1.49 (active)
99	EXOSC2 (GeneID 23404)	0.619
100	COX7A2 (GeneID 1347)	2.15 (active)
101	SLC30A8 (GeneID 169026)	-0.583
102	BICD1 (GeneID 636)	-1.21 (active)
103	OR8A1 (GeneID 390275)	-1.68 (active)
104	KLHDC10 (GeneID 23008)	1.2 (active)
105	GPBP1L1 (GeneID 60313)	-0.696
106	HIVEP3 (GeneID 59269)	-1.12 (active)
107	CLEC2L (GeneID 154790)	-2.12 (active)
108	OR56B4 (GeneID 196335)	0.85
109	GEMIN6 (GeneID 79833)	0.159
110	GZMK (GeneID 3003)	0.911

Ordered by “z-score vs non-targeting control” (descending): some entries from above.
gene	z-score vs non-targeting control
GSTA4 (GeneID 2941)	0.941
SNAP29 (GeneID 9342)	0.661
SNPH (GeneID 9751)	0.612
FAM110A (GeneID 83541)	0.0843
IGFBP5 (GeneID 3488)	-0.085
IFNL1 (GeneID 282618)	-0.632
MCUR1 (GeneID 63933)	-1.28 (active)
